A mixed list of measured activities; the numbers were collected in NIAID ChemDB.

All rows: whole-cell or culture tests; species: HIV-1; cells: CEM; method: syncytia; read-out: fold resistance

Lines come from different laboratories, so protocols vary. Fold resistance: result on the changed form divided by that on wild type. Blank or dashed fields: not listed here.

SMILES | strain | mutations | result
COCCOC(=O)c1cc(NC(=O)C2=C(C)OCCS2)ccc1Cl | PYR-resistant (RT Y181C) | RT-Y181C | >16.7
COc1ccc(NC(=S)OC(C)C)cc1CC(=O)OC(C)C | - | RT-L100I | 92.2
C=C(Cl)COc1cc(NC(=S)c2ccsc2C)ccc1C#N | HEPT-resistant (RT Y188H) | RT-Y188H | 66.7
CCOCn1c(Cc2ccccc2)c(CC)c(=O)[nH]c1=O | IIIB | Nevirapine resistant (RT Y181C) | 32.5
CC(C)OC(=O)c1cc(NC(=S)SC(C)C)ccc1Cl | - | RT-Y181C | >1.54
Cc1occc1C(=S)Nc1ccc(Cl)c(/C=N/OC(C)(C)C)c1 | IIIB | RT-E138K | 1.5
CC(C)OC(=O)c1cc(NC(=S)OCC2(C)COC2)ccc1Cl | - | RT-E138K | >1.07
COc1ccc(NC(=S)c2ccsc2C)cc1OCC=C(Cl)Cl | Pyridone-resistant (RT Y181C) | RT-Y181C | 26
CCCCOC(=S)Nc1ccc(Cl)c(C(=O)OC(C)C)c1 | - | RT-L100I | 58.3
CC(C)=CCOc1cc(NC(=S)c2ccoc2C)ccc1Cl | IIIB | RT-Y188H | 5
COCCOC(=S)Nc1ccc(Cl)c(C(=O)OC(C)C)c1 | - | RT-Y181C | ≥52.6
COc1ccc(NC(=S)C2=C(C)OCCS2)cc1OCC=C(Cl)Cl | Nevirapine-resistant isolate (RT V106A) | RT-V106A | 7.41
CC1=C(C(=O)Nc2ccc(Cl)c(C(=O)OC(C)C)c2)SCCO1 | IIIB | RT-V106A | >1500
CC(C)COC(=O)c1cc(NC(=S)OC(C)C)ccc1Cl | - | RT-Y181C | 202.1
CC(C)OC(=O)c1cc(NC(=S)OC(C)C)ccc1Cl | IIIB | RT-Y181C | 66
CC1=C(C(=O)Nc2cc(Cl)cc(C(=O)OC(C)C)c2)SCCO1 | TSAO-resistant (RT E138K) | RT-E138K | 1.1
COc1ccc(NC(=O)C2=C(C)OCCS2)cc1OCC=C(Cl)Cl | TSAO-m3T-resistant (RT E138K) | RT-E138K | 2.5
CCOCn1c(Cc2cc(C)cc(C)c2)c(CC)c(=O)[nH]c1=O | IIIB TIBO R82913-resistant (RT K103N) | RT-K103N | 150
CCSCC1=C(C(=O)Nc2ccc(Cl)c(C(=O)OC(C)C)c2)SCCO1 | PYR-resistant (RT Y181C) | RT-Y181C | >3.33
C=C(Cl)COc1cc(NC(=S)c2ccoc2C)ccc1Cl | TIBO R82913-resistant (RT K103N) | RT-K103N | 13.8
CCCCCOC(=O)c1cc(NC(=O)C2=C(C)OCCS2)ccc1Cl | PYR-resistant (RT Y181C) | RT-Y181C | 1
Cc1cc(C)cc(Sc2c(C(C)C)c(=O)[nH]c(=S)n2COCCO)c1 | IIIB | RT-E138K | 8.33
C/C(Cl)=C/COc1cc(NC(=O)c2ccoc2C)ccc1Cl | Pyridone-resistant (RT Y181C) | RT-Y181C | 14.4
CC(=O)COc1cc(NC(=S)OC(C)C)ccc1Cl | - | RT-Y181C | 15
Cc1cc(C)cc(Cc2c(C(C)C)c(=O)[nH]c(=O)n2COCCO)c1 | IIIB | RT-Y181C | 20
CC(C)OC(=S)Nc1ccc(Cl)c(C(=O)O)c1 | - | RT-E138K | >1
C/C(Cl)=C/COc1cc(NC(=S)c2ccoc2C)ccc1Cl | HEPT-resistant (RT Y188H) | RT-Y188H | 300
CC(=O)OCCOC(=O)c1cc(NC(=S)OC(C)C)ccc1Cl | - | RT-Y181C | ≥10
CCc1c(Sc2cc(C)cc(C)c2)n(COCCO)c(=S)[nH]c1=O | IIIB | Nevirapine resistant (RT Y181C) | 95
Cc1sccc1C(=S)Nc1ccc(Cl)c(OCC=C(Cl)Cl)c1 | TSAO-m3T-resistant (RT E138K) | RT-E138K | 10.7
C/C=C/COc1cc(NC(=S)OC(C)C)ccc1Cl | - | RT-L100I | 10
Cc1sccc1C(=O)Nc1ccc(Cl)c(OCC=C(Cl)Cl)c1 | TSAO-m3T-resistant (RT E138K) | RT-E138K | 10.6
CC(C)(C)OC(=O)c1cc(NC(=S)OC(C)(C)C)ccc1Cl | - | RT-V106A | 15.4